Laboratory results: patent US20120121591A1 (priority 2009, published 2012)

By UniProt entry, the sequences of proteins in these tests, tags left out. Where a name states a change or a piece, a line headed by the entry shows the natural chain unless it says otherwise. Residues count along the entry.
UniProt P29474, 2-1203: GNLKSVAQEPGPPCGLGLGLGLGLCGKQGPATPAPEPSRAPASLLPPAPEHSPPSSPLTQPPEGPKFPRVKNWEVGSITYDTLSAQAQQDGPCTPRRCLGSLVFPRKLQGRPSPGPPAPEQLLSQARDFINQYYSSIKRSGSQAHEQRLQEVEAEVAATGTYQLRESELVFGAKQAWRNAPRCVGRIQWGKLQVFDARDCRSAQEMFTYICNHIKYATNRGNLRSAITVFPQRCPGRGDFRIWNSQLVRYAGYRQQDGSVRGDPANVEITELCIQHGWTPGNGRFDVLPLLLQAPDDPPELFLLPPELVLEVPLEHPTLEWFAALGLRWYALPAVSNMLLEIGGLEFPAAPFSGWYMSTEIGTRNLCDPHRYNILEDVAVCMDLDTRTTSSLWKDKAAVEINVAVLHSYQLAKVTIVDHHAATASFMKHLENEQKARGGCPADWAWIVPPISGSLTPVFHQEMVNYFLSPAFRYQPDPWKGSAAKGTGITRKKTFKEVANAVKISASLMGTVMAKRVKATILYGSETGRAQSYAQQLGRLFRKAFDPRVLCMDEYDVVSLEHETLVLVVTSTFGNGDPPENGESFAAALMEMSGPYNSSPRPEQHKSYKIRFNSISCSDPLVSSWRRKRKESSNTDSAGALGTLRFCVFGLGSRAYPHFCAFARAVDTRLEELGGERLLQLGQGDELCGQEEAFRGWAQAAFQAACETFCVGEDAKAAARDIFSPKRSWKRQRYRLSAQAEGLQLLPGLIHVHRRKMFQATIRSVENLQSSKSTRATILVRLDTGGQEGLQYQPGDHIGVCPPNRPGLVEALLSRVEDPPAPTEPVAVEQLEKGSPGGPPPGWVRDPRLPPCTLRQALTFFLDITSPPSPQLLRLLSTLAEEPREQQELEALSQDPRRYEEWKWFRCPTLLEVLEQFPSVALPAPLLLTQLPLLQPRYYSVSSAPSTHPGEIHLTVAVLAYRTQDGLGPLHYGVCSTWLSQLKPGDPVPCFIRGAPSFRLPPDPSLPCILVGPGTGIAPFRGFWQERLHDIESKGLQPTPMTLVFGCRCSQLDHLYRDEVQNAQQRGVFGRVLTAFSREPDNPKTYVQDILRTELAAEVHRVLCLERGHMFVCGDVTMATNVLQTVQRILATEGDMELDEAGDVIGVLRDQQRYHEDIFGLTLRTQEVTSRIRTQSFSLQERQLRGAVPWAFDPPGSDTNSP
UniProt P25929, whole entry: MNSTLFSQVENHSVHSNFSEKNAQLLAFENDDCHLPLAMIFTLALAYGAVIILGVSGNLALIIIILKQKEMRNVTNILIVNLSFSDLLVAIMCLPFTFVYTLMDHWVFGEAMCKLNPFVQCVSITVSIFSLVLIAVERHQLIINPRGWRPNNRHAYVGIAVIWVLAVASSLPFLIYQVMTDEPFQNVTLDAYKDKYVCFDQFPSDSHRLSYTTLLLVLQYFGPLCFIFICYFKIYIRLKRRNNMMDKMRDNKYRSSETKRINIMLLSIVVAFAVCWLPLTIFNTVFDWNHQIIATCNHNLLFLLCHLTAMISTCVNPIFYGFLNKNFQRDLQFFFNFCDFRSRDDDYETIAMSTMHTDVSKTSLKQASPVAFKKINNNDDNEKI
UniProt Q01064: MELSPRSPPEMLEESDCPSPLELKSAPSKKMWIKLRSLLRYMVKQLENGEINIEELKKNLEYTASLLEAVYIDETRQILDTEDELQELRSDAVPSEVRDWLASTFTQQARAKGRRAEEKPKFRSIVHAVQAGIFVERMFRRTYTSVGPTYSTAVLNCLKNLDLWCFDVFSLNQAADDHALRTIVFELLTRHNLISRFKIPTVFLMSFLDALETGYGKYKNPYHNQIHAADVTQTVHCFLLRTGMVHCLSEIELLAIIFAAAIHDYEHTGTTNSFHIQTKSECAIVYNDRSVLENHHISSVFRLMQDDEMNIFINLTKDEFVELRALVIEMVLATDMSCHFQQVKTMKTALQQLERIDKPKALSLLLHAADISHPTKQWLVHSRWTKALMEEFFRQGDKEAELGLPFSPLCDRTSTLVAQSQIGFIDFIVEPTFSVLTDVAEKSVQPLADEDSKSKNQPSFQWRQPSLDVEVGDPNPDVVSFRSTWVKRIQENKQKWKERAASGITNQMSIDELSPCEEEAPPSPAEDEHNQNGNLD
UniProt O15554, whole entry: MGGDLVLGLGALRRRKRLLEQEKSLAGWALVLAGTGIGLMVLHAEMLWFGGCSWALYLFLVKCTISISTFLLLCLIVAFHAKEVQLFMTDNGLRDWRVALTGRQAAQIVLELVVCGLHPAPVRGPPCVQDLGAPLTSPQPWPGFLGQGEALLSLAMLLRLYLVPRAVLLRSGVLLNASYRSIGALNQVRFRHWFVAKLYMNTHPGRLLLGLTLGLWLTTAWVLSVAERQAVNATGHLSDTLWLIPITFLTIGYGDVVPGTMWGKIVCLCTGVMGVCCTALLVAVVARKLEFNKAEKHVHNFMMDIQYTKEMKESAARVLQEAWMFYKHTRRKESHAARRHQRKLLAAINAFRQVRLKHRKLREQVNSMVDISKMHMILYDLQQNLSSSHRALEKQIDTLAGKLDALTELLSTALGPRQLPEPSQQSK
UniProt Q92633: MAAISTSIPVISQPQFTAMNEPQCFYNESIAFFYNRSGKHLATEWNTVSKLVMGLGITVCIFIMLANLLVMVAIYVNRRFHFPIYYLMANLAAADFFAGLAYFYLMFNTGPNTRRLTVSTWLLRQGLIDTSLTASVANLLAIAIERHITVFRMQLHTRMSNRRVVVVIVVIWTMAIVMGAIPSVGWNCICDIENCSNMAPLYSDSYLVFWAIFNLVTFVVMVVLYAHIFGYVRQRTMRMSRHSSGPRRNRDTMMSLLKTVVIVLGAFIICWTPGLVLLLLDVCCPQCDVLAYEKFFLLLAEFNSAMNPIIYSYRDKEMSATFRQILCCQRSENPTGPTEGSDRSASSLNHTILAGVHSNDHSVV

Experiments:
[1] = molecular target: Ca Channel (N) (Cerep target) (human)
[2] = molecular target: Nitric Oxide (endothelial) (Cerep target) (human) (UniProt P29474)
[3] = molecular target: Neuropeptide Y1 (Cerep target) (human) (UniProt P25929)
[4] = molecular target: Phosphodiestrase 1B (Cerep target) (human) (UniProt Q01064)
[5] = molecular target: K Channel (KATP) (Cerep target) (human)
[6] = molecular target: K Channel (Kv) (Cerep target) (human)
[7] = molecular target: Ca Channel (N) (Cerep target) (human); assay: Cerep safety pharmacology binding assay
[8] = molecular target: Nitric Oxide (endothelial) (Cerep target) (human) (UniProt P29474); assay: Cerep safety pharmacology binding assay
[9] = molecular target: Neuropeptide Y1 (Cerep target) (human) (UniProt P25929); assay: Cerep safety pharmacology binding assay
[10] = molecular target: Phosphodiestrase 1B (Cerep target) (human) (UniProt Q01064); assay: Cerep safety pharmacology binding assay
[11] = molecular target: K Channel (KATP) (Cerep target) (human); assay: Cerep safety pharmacology binding assay
[12] = molecular target: K Channel (Kv) (Cerep target) (human); assay: Cerep safety pharmacology binding assay
[13] = molecular target: human IKCa1 (human) (UniProt O15554); assay: cell-based or functional assay
[14] = molecular target: Lysophosphotodic A1 (Cerep target) (human) (UniProt Q92633)
[15] = molecular target: Lysophosphotodic A1 (Cerep target) (human) (UniProt Q92633); assay: Cerep safety pharmacology binding assay

Row | Substance | % Inhibition [1] [%] | % Inhibition [2] [%] | % Inhibition [3] [%] | % Inhibition [4] [%] | % Inhibition [5] [%] | % Inhibition [6] [%] | IC50 [7] [µM] | IC50 [8] [µM] | IC50 [9] [µM] | IC50 [10] [µM] | IC50 [11] [µM] | IC50 [12] [µM] | IKCa1 IC50 [13] [µM] | % Inhibition [14] [%] | IC50 [15] [µM]
1 | 20 kDa PEG-[Lys16]ShK (peptide) | 58 | 90 | 51 | 68 | 54 | 90 | 3 | 0.59 | 22 | 27 | 2.7 | 0.023 | > 10 | – | –
2 | 20 kDa PEG-[Lys16]ShK (peptide; other documents disagree on this pair) | – | – | – | – | – | – | – | – | – | – | – | – | – | 62 | 5.5
